Data: patent US20210346356A1, “INHIBITING UBIQUITIN SPECIFIC PEPTIDASE 9X” (FORMA THERAPEUTICS, INC., priority 2018, published 2021)

Tested on: SEB-exhausted human PBMCs
Assay: IFNγ production in SEB-exhausted human PBMCs (Example 1)
Type: cell-based
Settings: SEB-stimulated PBMCs, rested 2 days with agent; FIG. 1, FIG. 3A

CNC[C@H](C(=O)N1CC2=C(C1)CN(S(=O)(=O)c1ccc3c(c1)OCCO3)C2)c1cccc(Cl)c1 [USP9X Inhibitor 3, (2R)-2-(3-chlorophenyl)-1-[5-(2,3-dihydro-1,4-Benzodioxine-6-sulfonyl)-1H,2H,3H,4H,5H,6H-pyrrolo[3,4-c]pyrrol-2-yl]-3-(methylamino)propan-1-one]
Production of IFNγ: promoted IFNγ secretion
